Experimental data reported in article PMC12501195, “Structural and functional analysis of the Mycobacterium tuberculosis MmpS5L5 efflux pump presages increased bedaquiline resistance” (Proceedings of the National Academy of Sciences of the …, 2025).

B1: Mycobacterium tuberculosis MmpL5 ∆494-688 with a C-terminal GFP-FLAG tag (natural protein)
chain: MIVQRTAAPTGSVPPDRHAARPFIPRMIRTFAVPIILGWLVTIAVLNVTVPQLETVGQIQAVSMSPDAAPSMISMKHIGKVFEEGDSDSAAMIVLEGQRPLGDAAHAFYDQMIGRLQADTTHVQSLQDFWGDPLTATGAQSSDGKAAYVQVKLAGNQGESLANESVEAVKTIVERLAPPPGVKVYVTGSAALVADQQQAGDRSLQVIEAVTFTVIIVMLLLVYRSIITSAIMLTMVVLGLLATRGGVAFLGFHRIIGLSTFATNLLVVLAIAAATDYAIFLIGRYQEARGLGQDRESAYYTMFGGTAHVVLGSGLTIAGATFCLSFTRLPYFQTLGVPLAIGMVIVVAAALTLGPAIIAVTSRFGKLLEPKRMARVRGWRKVGAAIVRWPGPILVGAVALALVGLLTLPGYRTNYNDRNYLPADLPANEGYAAAERHFSQARMNPEVLMVESDHDMRNSADFLVINKIAKAIFAVEGISRVQAITRPDGKPIEFYLPPEVFDNPDFQRGLEQFLSPDGHAVRFIISHEGDPMSQAGIARIAKIKTAAKEAIKGTPLEGSAIYLGGTAAMFKDLSDGNTYDLMIAGISALCLIFIIMLITTRSVVAAAVIVGTVVLSLGASFGLSVLIWQHILGIELHWLVLAMAVIILLAVGADYNLLLVARLKEEIHAGINTGIIRAMGGSGSVVTAAGLVFAFTMMSFAVSELTVMAQVGTTIGMGLLFDTLIVRSFMTPSIAALLGKWFWWPQVVRQRPIPQPWPSPASARTFALV
B2: Mycobacterium tuberculosis MmpS5 (natural protein)
chain: MIGTLKRAWIPLLILVVVAIAGFTVQRIRTFFGSEGILVTPKVFADDPEPFDPKVVEYEVSGSGSYVNINYLDLDAKPQRIDGAALPWSLTLKTTAPSAAPNILAQGDGTSITCRITVDGEVKDERTATGVDALTYCFVKSA
B3: Mycobacterium smegmatis acyl carrier protein AcpM (MSMEG_4326) (natural protein)
chain: MAATQEEIIAGLAEIIEEVTGIEPSEVTPEKSFVDDLDIDSLSMVEIAVQTEDKYGVKIPDEDLAGLRTVGDVVAYIQKLEEENPEAAAALREKFAADQ
modifications: 4′-phosphopantetheine on Ser41

Columns and labels:
cryo-EM structure = target: the molecule itself; assay: cryo-EM structure
[1] = target: B1; assay: cryo-EM structure

B1
stoichiometry N (cryo-EM structure): 3 protomers

B2
stoichiometry N [1]: 1 MmpS5 per MmpL5 (3:3)

B3
binding result [1]: binds
